Construct, isoform or probe ends are uncertain for at least one entry. Tags and fusion partners may be left off the protein sequences shown.
Target: T1, HilD (UniProt P0CL08)
T1 sequence (looked up, limits assumed): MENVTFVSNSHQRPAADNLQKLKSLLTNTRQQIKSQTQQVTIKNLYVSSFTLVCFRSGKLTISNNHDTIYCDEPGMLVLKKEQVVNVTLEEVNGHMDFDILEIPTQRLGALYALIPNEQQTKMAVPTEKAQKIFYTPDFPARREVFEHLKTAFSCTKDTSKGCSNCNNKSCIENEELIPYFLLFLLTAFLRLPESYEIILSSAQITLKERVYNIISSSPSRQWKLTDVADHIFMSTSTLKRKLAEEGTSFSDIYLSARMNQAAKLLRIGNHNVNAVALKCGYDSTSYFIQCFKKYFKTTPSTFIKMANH
Test: EMSA
Details: no myricanol; recombinant protein; label: 5' FAM on both primers; probe letters rebuilt from the primers and the genome

CTCTATTGCAATGAGGCCAAGTTAAATATGTAAATATTTAGATGCCCGGCGCTGACTCTCTCTGCACCAGGATATACGGCAGCGTCCATTCGATAATCACAGTTAGTTATAACAATATTATTACCAACATGTCAGTTATTTAAAGCACAGGCATAAGCTAAATAATCAAATGTTAAAAACATATAAACCCGAGCCCGTAGAATATGACATTAAGCTCATAATAAAAGCTCAACCTGACCGTTAGTACTAACAGCAGAATTACTGAAACAGTAGATTCTATCCTAACGACTTGTATTAGTTATTATAACTTTTCACCCTGTAAGAGAATACACTATTATCATGCCACATTTTAATCCTGTTCCTG (double strand) [hilA promoter]
binding result: binds

— article PMC7546796, “Myricanol Inhibits the Type III Secretion System of Salmonella enterica Serovar Typhimurium by Interfering With the DNA-Binding Activity of HilD” (Frontiers in Microbiology, 2020)
